Measurements taken from PMC3410853, “Structural Bases of Coronavirus Attachment to Host Aminopeptidase N and Its Inhibition by Neutralizing Antibodies” (PLoS Pathogens, 2012).

B1: Fab fragment of the TGEV-neutralizing mAb 1AF10 (Fab, V domains shown)
VH: QVQLQQSGPELVKPGASVKISCKASGYAFSSSWMNWVKQRPGQGLEWIGRIYPGDGETNYSEKFKGKATLTADKSSSTAYMHLSSLTSVDSAVYFCARGGYRYDPYYAMDYWGQGTSVTVSS
VL: DILLTQSPAILSVSPGERVSLSCRASQSIGTSIHWYQQRTNGSPRPLIKYASESISGIPSRFSGSGSGTDFTLNINSVESEDIADYFCQQTDSWPTTFGAGTKLELK
notes: also called 1AF10 Fab; 1AF10-Fab fragment

How the values were obtained:
[1] = biological target: porcine aminopeptidase N (pAPN) on the surface of BHK-pAPN cells (UniProt P15145); assay: flow cytometry on cells (FACS, percentage of stained cells); conditions: same concentration of wild type and mutant SA-Fc proteins, parent: est. 100, read off a plot
[2] = biological target: T1, SA-Flag protein (monovalent SA-Flag variant; TGEV S residues 481 to 650) (Transmissible gastroenteritis virus …); assay: crystal structure; conditions: both partners purified
T1 chain: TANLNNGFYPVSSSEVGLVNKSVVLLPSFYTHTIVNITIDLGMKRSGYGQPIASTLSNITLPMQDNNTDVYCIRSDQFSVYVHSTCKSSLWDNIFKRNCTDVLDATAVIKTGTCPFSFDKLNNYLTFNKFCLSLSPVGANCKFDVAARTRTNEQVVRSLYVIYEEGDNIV

Molecule	percent of parent [1] [%]	binding result [2]
SA-Fc fusion protein (bivalent SA-Fc variant; TGEV S residues 481 to 650) Y528A	1	
SA-Fc fusion protein (bivalent SA-Fc variant; TGEV S residues 481 to 650) W571A	3.5	
B1		binds
